Data as given in ChEMBL document CHEMBL5346973 (J Med Chem, 2023).

Chains of the proteins cited; added tags and fusions are not shown. Lines headed by an entry give the natural chain unless they say otherwise; changes in a name come on top.
UniProt P43144: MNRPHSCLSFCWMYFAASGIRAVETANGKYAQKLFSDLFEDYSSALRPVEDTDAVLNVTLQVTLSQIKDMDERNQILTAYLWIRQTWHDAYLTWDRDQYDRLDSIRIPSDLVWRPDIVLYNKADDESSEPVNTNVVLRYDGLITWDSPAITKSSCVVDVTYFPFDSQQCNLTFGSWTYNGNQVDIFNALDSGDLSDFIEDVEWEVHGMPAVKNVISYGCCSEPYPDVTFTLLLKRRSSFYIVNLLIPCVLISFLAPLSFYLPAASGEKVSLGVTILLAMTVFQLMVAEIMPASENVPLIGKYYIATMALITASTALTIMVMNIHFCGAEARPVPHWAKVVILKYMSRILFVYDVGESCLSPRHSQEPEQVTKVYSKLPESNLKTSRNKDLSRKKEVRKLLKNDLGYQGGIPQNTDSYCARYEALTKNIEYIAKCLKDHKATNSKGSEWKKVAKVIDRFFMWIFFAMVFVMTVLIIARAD
UniProt Q9JLB5: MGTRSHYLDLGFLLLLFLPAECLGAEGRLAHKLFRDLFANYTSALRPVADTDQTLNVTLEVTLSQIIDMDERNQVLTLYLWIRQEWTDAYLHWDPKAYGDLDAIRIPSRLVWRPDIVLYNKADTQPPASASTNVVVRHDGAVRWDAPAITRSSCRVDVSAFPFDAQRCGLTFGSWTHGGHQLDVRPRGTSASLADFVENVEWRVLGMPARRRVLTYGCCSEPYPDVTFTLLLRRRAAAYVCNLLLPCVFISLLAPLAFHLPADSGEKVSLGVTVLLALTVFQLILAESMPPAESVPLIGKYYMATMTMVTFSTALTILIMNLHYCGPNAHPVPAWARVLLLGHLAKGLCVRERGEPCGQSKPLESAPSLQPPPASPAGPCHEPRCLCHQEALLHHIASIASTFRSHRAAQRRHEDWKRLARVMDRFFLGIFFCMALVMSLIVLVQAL
UniProt Q05941, whole entry, looked up: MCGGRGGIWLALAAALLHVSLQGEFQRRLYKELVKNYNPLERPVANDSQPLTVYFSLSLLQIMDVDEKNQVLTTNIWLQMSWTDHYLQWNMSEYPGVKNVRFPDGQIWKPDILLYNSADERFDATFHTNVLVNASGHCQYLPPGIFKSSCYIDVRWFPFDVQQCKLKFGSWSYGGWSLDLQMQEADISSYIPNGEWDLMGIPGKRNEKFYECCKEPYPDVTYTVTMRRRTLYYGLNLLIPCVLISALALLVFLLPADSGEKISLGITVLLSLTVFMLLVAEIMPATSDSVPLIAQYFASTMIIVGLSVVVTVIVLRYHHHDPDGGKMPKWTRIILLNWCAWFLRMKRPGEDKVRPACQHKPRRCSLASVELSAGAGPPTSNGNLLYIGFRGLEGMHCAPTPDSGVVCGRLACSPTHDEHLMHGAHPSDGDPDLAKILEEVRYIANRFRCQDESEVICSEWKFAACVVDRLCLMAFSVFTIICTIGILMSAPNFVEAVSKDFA

Experiments:
[1] = molecular target: Nicotinic acetylcholine receptor alpha9/alpha10 (Rattus norvegicus) (UniProt P43144+Q9JLB5); experiment: Antagonist activity at rat alpha9alpha10 nACh receptor expressed in Xenopus oocyte assessed as inhibition of acetylcholine-induced response at -70 mV holding potential by measuring ratio of IC50 by voltage-clamp based electrophysiological assay relative to GeXIVA; type: cell-based; settings: filed as antagonist
Rattus norvegicus = organism: Rattus norvegicus; experiment: Selectivity ratio of IC50 for rat alpha7 nACh receptor to IC50 for rat alpha9alpha10 nACh receptor
[2] = molecular target: Neuronal acetylcholine receptor subunit alpha-7 (Rattus norvegicus) (UniProt Q05941); experiment: Antagonist activity at rat alpha7 nACh receptor expressed in Xenopus oocyte assessed as inhibition of acetylcholine-induced response at -70 mV holding potential by measuring ratio of IC50 by voltage-clamp based electrophysiological assay relative to GeXIVA; settings: filed as antagonist

For `CC[C@H](C)[C@@H]1NC(=O)[C@H](CCCNC(=N)N)NC(=O)[C@H](CCCNC(=N)N)NC(=O)[C@@H](NC(=O)[C@H](Cc2ccc(O)cc2)NC(=O)[C@H](CCCNC(=N)N)NC(=O)[C@H](CCCNC(=N)N)NC(=O)[C@H](CCCNC(=N)N)NC(=O)[C@H](CCCNC(=N)N)NC(=O)[C@H](CC(=O)O)NC(=O)[C@H](Cc2ccc(O)cc2)NC(=O)[C@@H]2CCCN2C(=O)[C@H](CO)NC(=O)[C@H](CCCNC(=N)N)NC(=O)[C@@H]2CSSC[C@H](NC(=O)[C@@H](N)[C@@H](C)O)C(=O)N[C@@H](CCCNC(=N)N)C(=O)N[C@@H](CO)C(=O)N[C@@H](CO)C(=O)NCC(=O)N[C@@H](CCCNC(=N)N)C(=O)N[C@@H](C)C(=O)N2)CSSC[C@@H](C(=O)N[C@H](C(=O)O)C(C)C)NC(=O)[C@H](C)NC(=O)[C@H](CC(=O)O)NC(=O)[C@H]([C@@H](C)O)NC1=O`, the Ratio IC50 [1] was 0.7, the Ratio IC50 (Rattus norvegicus) was 170 and the Ratio IC50 [2] was 2.6.

`CC[C@H](C)[C@@H]1NC(=O)[C@H](CCCNC(=N)N)NC(=O)[C@H](CCCNC(=N)N)NC(=O)[C@@H](NC(=O)[C@H](Cc2ccc(O)cc2)NC(=O)[C@H](CCCNC(=N)N)NC(=O)[C@H](CCCNC(=N)N)NC(=O)[C@H](CCCNC(=N)N)NC(=O)[C@H](CCCNC(=N)N)NC(=O)[C@H](CC(=O)O)NC(=O)[C@H](C)NC(=O)[C@@H]2CCCN2C(=O)[C@H](CO)NC(=O)[C@H](CCCNC(=N)N)NC(=O)[C@@H]2CSSC[C@H](NC(=O)[C@@H](N)[C@@H](C)O)C(=O)N[C@@H](CCCNC(=N)N)C(=O)N[C@@H](CO)C(=O)N[C@@H](CO)C(=O)NCC(=O)N[C@@H](CCCNC(=N)N)C(=O)N[C@@H](Cc3ccc(O)cc3)C(=O)N2)CSSC[C@@H](C(=O)N[C@H](C(=O)O)C(C)C)NC(=O)[C@H](C)NC(=O)[C@H](CC(=O)O)NC(=O)[C@H]([C@@H](C)O)NC1=O` was tested, and the Ratio IC50 [1] was 0.9, the Ratio IC50 (Rattus norvegicus) was 134 and the Ratio IC50 [2] was 2.3.

Compound `CC[C@H](C)[C@@H]1NC(=O)[C@H](CCCNC(=N)N)NC(=O)[C@H](CCCNC(=N)N)NC(=O)[C@@H]2CSSC[C@H](NC(=O)[C@H](Cc3ccc(O)cc3)NC(=O)[C@H](CCCNC(=N)N)NC(=O)CNC(=O)[C@H](CO)NC(=O)[C@H](CO)NC(=O)[C@H](CCCNC(=N)N)NC(=O)[C@@H](NC(=O)[C@@H](N)[C@@H](C)O)CSSC[C@@H](C(=O)N[C@H](C(=O)O)C(C)C)NC(=O)[C@H](C)NC(=O)[C@H](CC(=O)O)NC(=O)[C@H]([C@@H](C)O)NC1=O)C(=O)N[C@@H](CCCNC(=N)N)C(=O)N[C@@H](CO)C(=O)N1CCC[C@H]1C(=O)N[C@@H](C)C(=O)N[C@@H](CC(=O)O)C(=O)N[C@@H](CCCNC(=N)N)C(=O)N[C@@H](CCCNC(=N)N)C(=O)N[C@@H](CCCNC(=N)N)C(=O)N[C@@H](CCCNC(=N)N)C(=O)N[C@@H](Cc1ccc(O)cc1)C(=O)N2` has a Ratio IC50 [1] of 1.3, a Ratio IC50 (Rattus norvegicus) of 234 and a Ratio IC50 [2] of 1.6.

`CC[C@H](C)[C@@H]1NC(=O)[C@H](CCCNC(=N)N)NC(=O)[C@H](CCCNC(=N)N)NC(=O)[C@@H]2CSSC[C@H](NC(=O)[C@H](Cc3ccc(O)cc3)NC(=O)[C@H](CCCNC(=N)N)NC(=O)CNC(=O)[C@H](CO)NC(=O)[C@H](C)NC(=O)[C@H](CCCNC(=N)N)NC(=O)[C@@H](NC(=O)[C@@H](N)[C@@H](C)O)CSSC[C@@H](C(=O)N[C@H](C(=O)O)C(C)C)NC(=O)[C@H](C)NC(=O)[C@H](CC(=O)O)NC(=O)[C@H]([C@@H](C)O)NC1=O)C(=O)N[C@@H](CCCNC(=N)N)C(=O)N[C@@H](CO)C(=O)N1CCC[C@H]1C(=O)N[C@@H](Cc1ccc(O)cc1)C(=O)N[C@@H](CC(=O)O)C(=O)N[C@@H](CCCNC(=N)N)C(=O)N[C@@H](CCCNC(=N)N)C(=O)N[C@@H](CCCNC(=N)N)C(=O)N[C@@H](CCCNC(=N)N)C(=O)N[C@@H](Cc1ccc(O)cc1)C(=O)N2` was tested, and the Ratio IC50 [1] was 1.1, the Ratio IC50 (Rattus norvegicus) was 241 and the Ratio IC50 [2] was 1.4.

Work on `CC[C@H](C)[C@@H]1NC(=O)[C@H](CCCNC(=N)N)NC(=O)[C@H](CCCNC(=N)N)NC(=O)[C@@H]2CSSC[C@H](NC(=O)[C@H](Cc3ccc(O)cc3)NC(=O)[C@H](CCCNC(=N)N)NC(=O)CNC(=O)[C@H](CO)NC(=O)[C@H](CO)NC(=O)[C@H](CCCNC(=N)N)NC(=O)[C@@H](NC(=O)[C@@H](N)[C@@H](C)O)CSSC[C@@H](C(=O)N[C@H](C(=O)O)C(C)C)NC(=O)[C@H](C)NC(=O)[C@H](CC(=O)O)NC(=O)[C@H]([C@@H](C)O)NC1=O)C(=O)N[C@@H](CCCNC(=N)N)C(=O)N[C@@H](CO)C(=O)N1CCC[C@H]1C(=O)N[C@@H](Cc1ccc(O)cc1)C(=O)N[C@@H](C)C(=O)N[C@@H](CCCNC(=N)N)C(=O)N[C@@H](CCCNC(=N)N)C(=O)N[C@@H](CCCNC(=N)N)C(=O)N[C@@H](CCCNC(=N)N)C(=O)N[C@@H](Cc1ccc(O)cc1)C(=O)N2` yielded a Ratio IC50 [1] of 0.3, a Ratio IC50 (Rattus norvegicus) of 1620 and a Ratio IC50 [2] of 2.7.

`CC[C@H](C)[C@@H]1NC(=O)[C@H](CCCNC(=N)N)NC(=O)[C@H](CCCNC(=N)N)NC(=O)[C@@H]2CSSC[C@H](NC(=O)[C@H](Cc3ccc(O)cc3)NC(=O)[C@H](CCCNC(=N)N)NC(=O)CNC(=O)[C@H](CO)NC(=O)[C@H](CO)NC(=O)[C@H](CCCNC(=N)N)NC(=O)[C@@H](NC(=O)[C@@H](N)[C@@H](C)O)CSSC[C@@H](C(=O)N[C@H](C(=O)O)C(C)C)NC(=O)[C@H](C)NC(=O)[C@H](CC(=O)O)NC(=O)[C@H]([C@@H](C)O)NC1=O)C(=O)N[C@@H](CCCNC(=N)N)C(=O)N[C@@H](CO)C(=O)N1CCC[C@H]1C(=O)N[C@@H](Cc1ccc(O)cc1)C(=O)N[C@@H](CC(=O)O)C(=O)N[C@@H](CCCNC(=N)N)C(=O)N[C@@H](CCCNC(=N)N)C(=O)N[C@@H](C)C(=O)N[C@@H](CCCNC(=N)N)C(=O)N[C@@H](Cc1ccc(O)cc1)C(=O)N2` showed a Ratio IC50 [1] of 3.6.

`CC[C@H](C)[C@@H]1NC(=O)[C@H](CCCNC(=N)N)NC(=O)[C@H](C)NC(=O)[C@@H]2CSSC[C@H](NC(=O)[C@H](Cc3ccc(O)cc3)NC(=O)[C@H](CCCNC(=N)N)NC(=O)CNC(=O)[C@H](CO)NC(=O)[C@H](CO)NC(=O)[C@H](CCCNC(=N)N)NC(=O)[C@@H](NC(=O)[C@@H](N)[C@@H](C)O)CSSC[C@@H](C(=O)N[C@H](C(=O)O)C(C)C)NC(=O)[C@H](C)NC(=O)[C@H](CC(=O)O)NC(=O)[C@H]([C@@H](C)O)NC1=O)C(=O)N[C@@H](CCCNC(=N)N)C(=O)N[C@@H](CO)C(=O)N1CCC[C@H]1C(=O)N[C@@H](Cc1ccc(O)cc1)C(=O)N[C@@H](CC(=O)O)C(=O)N[C@@H](CCCNC(=N)N)C(=O)N[C@@H](CCCNC(=N)N)C(=O)N[C@@H](CCCNC(=N)N)C(=O)N[C@@H](CCCNC(=N)N)C(=O)N[C@@H](Cc1ccc(O)cc1)C(=O)N2` showed a Ratio IC50 [1] of 2.4.

In the case of `CC[C@H](C)[C@@H]1NC(=O)[C@H](CCCNC(=N)N)NC(=O)[C@H](CCCNC(=N)N)NC(=O)[C@@H]2CSSC[C@H](NC(=O)[C@H](Cc3ccc(O)cc3)NC(=O)[C@H](CCCNC(=N)N)NC(=O)CNC(=O)[C@H](CO)NC(=O)[C@H](CO)NC(=O)[C@H](CCCNC(=N)N)NC(=O)[C@@H](NC(=O)[C@@H](N)[C@@H](C)O)CSSC[C@@H](C(=O)N[C@H](C(=O)O)C(C)C)NC(=O)[C@H](C)NC(=O)[C@H](CC(=O)O)NC(=O)[C@H]([C@@H](C)O)NC1=O)C(=O)N[C@@H](CCCNC(=N)N)C(=O)N[C@@H](CO)C(=O)N1CCC[C@H]1C(=O)N[C@@H](Cc1ccc(O)cc1)C(=O)N[C@@H](CC(=O)O)C(=O)N[C@@H](CCCNC(=N)N)C(=O)N[C@@H](C)C(=O)N[C@@H](CCCNC(=N)N)C(=O)N[C@@H](CCCNC(=N)N)C(=O)N[C@@H](Cc1ccc(O)cc1)C(=O)N2`, the Ratio IC50 [1] was 5.2.

Compound `CC[C@H](C)[C@@H]1NC(=O)[C@H](CCCNC(=N)N)NC(=O)[C@H](CCCNC(=N)N)NC(=O)[C@@H]2CSSC[C@H](NC(=O)[C@H](Cc3ccc(O)cc3)NC(=O)[C@H](CCCNC(=N)N)NC(=O)CNC(=O)[C@H](CO)NC(=O)[C@H](CO)NC(=O)[C@H](CCCNC(=N)N)NC(=O)[C@@H](NC(=O)[C@@H](N)[C@@H](C)O)CSSC[C@@H](C(=O)N[C@H](C(=O)O)C(C)C)NC(=O)[C@H](C)NC(=O)[C@H](CC(=O)O)NC(=O)[C@H]([C@@H](C)O)NC1=O)C(=O)N[C@@H](CCCNC(=N)N)C(=O)N[C@@H](CO)C(=O)N1CCC[C@H]1C(=O)N[C@@H](Cc1ccc(O)cc1)C(=O)N[C@@H](CC(=O)O)C(=O)N[C@@H](CCCNC(=N)N)C(=O)N[C@@H](CCCNC(=N)N)C(=O)N[C@@H](CCCNC(=N)N)C(=O)N[C@@H](C)C(=O)N[C@@H](Cc1ccc(O)cc1)C(=O)N2` has a Ratio IC50 [1] of 1.7.

Compound `CC[C@H](C)[C@@H]1NC(=O)[C@H](CCCNC(=N)N)NC(=O)[C@H](CCCNC(=N)N)NC(=O)[C@@H]2CSSC[C@H](NC(=O)[C@H](Cc3ccc(O)cc3)NC(=O)[C@H](C)NC(=O)CNC(=O)[C@H](CO)NC(=O)[C@H](CO)NC(=O)[C@H](CCCNC(=N)N)NC(=O)[C@@H](NC(=O)[C@@H](N)[C@@H](C)O)CSSC[C@@H](C(=O)N[C@H](C(=O)O)C(C)C)NC(=O)[C@H](C)NC(=O)[C@H](CC(=O)O)NC(=O)[C@H]([C@@H](C)O)NC1=O)C(=O)N[C@@H](CCCNC(=N)N)C(=O)N[C@@H](CO)C(=O)N1CCC[C@H]1C(=O)N[C@@H](Cc1ccc(O)cc1)C(=O)N[C@@H](CC(=O)O)C(=O)N[C@@H](CCCNC(=N)N)C(=O)N[C@@H](CCCNC(=N)N)C(=O)N[C@@H](CCCNC(=N)N)C(=O)N[C@@H](CCCNC(=N)N)C(=O)N[C@@H](Cc1ccc(O)cc1)C(=O)N2` has a Ratio IC50 [1] of 3.

In the case of `CC[C@H](C)[C@@H]1NC(=O)[C@H](C)NC(=O)[C@H](CCCNC(=N)N)NC(=O)[C@@H]2CSSC[C@H](NC(=O)[C@H](Cc3ccc(O)cc3)NC(=O)[C@H](CCCNC(=N)N)NC(=O)CNC(=O)[C@H](CO)NC(=O)[C@H](CO)NC(=O)[C@H](CCCNC(=N)N)NC(=O)[C@@H](NC(=O)[C@@H](N)[C@@H](C)O)CSSC[C@@H](C(=O)N[C@H](C(=O)O)C(C)C)NC(=O)[C@H](C)NC(=O)[C@H](CC(=O)O)NC(=O)[C@H]([C@@H](C)O)NC1=O)C(=O)N[C@@H](CCCNC(=N)N)C(=O)N[C@@H](CO)C(=O)N1CCC[C@H]1C(=O)N[C@@H](Cc1ccc(O)cc1)C(=O)N[C@@H](CC(=O)O)C(=O)N[C@@H](CCCNC(=N)N)C(=O)N[C@@H](CCCNC(=N)N)C(=O)N[C@@H](CCCNC(=N)N)C(=O)N[C@@H](CCCNC(=N)N)C(=O)N[C@@H](Cc1ccc(O)cc1)C(=O)N2`, the Ratio IC50 [1] was 11.6.
